The results in this text go back to PMC12421842.

For at least one entry, the source does not settle the construct or the ends of the probe.

The target in data set [1] is T1, HicB (HicB-His) (Neisseria gonorrhoeae FA1090) (UniProt Q5F6D2).
T1 sequence: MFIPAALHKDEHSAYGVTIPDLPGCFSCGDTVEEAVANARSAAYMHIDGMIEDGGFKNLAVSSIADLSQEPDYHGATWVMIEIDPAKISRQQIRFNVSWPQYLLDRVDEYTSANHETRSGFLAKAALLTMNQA
The data set can be described thus: EMSA. The conditions noted are these: 10 ug HicB, 100x unlabeled norB probe as specific competitor; EMSA: 20 mM HEPES pH 7.6, 1 mM EDTA, 10 mM (NH4)2SO4, 1 mM DTT, 0.2% Tween-20, 30 mM KCl, 1.25 ng/uL calf thymus DNA, 30 min at 30 C; recombinant protein; label: DIG; probe letters rebuilt from the primers and the genome.

Data set [2] deals with T1, HicB (HicB-His) (Neisseria gonorrhoeae FA1090). The data set is described as follows: DNase I footprinting. The conditions noted are these: 14 bp protected, 3 bp upstream of putative -35; recombinant protein; label: FAM (forward primer), HEX (reverse primer); probe letters rebuilt from the primers and the genome.

As to “AGCTTCTTGTACTGTCCCATTTTGAGAGCTCCTTTTAATAAATCAGTTGTTTAAAATTCACAAAATATGAATGTTAAAGATTGTAGCATGGTTTACCGCGCAAATAAACATTTGTTCAAACAAACTCACATATAGAACAAATACATATATGATAATAACTATCATTATTCTTTACTCGGAAATTGCCCTGCCTTTGCCTGCTCTGCCGGAGCCCCTAGCAAATCAGCCTATTCATTGTAATTTTTAGTAGTTATAAAGTATTAGAAGCGTCATTTTAAGTTCATATTTTATGAATTATTTGACTTAAATTAAAATGCCCGCAATGGGACAACCGCATAATCACACCAAGTTCTTAACTAATCCCCCCTACTTTTCTTACAAAAGGAA (double strand) [norB promoter EMSA probe]”, the binding result in data set [1] is “binds”. For “GCAGTAGTTGCAGGGAAGGGTGTAAAAAGCCCGCATAACGCGGGCGGTCTTGAGGGCTGTCAGCCGCAGGCAAAGTTTCTGATGATTTTGCCTTCGCTTCGGTTATCGGCAAGCTGTATGCCCTGTTCCTCCAGGTCGCCCGATACGTCAAGCAATGCCTTTTCTTGTGCCTTGTCGGGA (double strand) [hicAB promoter footprinting probe]”, in data set [2], the binding result is listed as “binds”.
